System: keratinocytes
Test: Viability and GFP expression after RNA transfection (flow cytometry)
Details: media supplementation with B18R

B18R
cellular viability following RNA transfection: further increased

Source: patent publication US10344265B2, “Sustained polypeptide expression from synthetic, modified RNAs and uses thereof” (Children's Medical Center Corporation, priority 2010, dated 2019)
